A mixed list of measured activities; the numbers were collected in NIAID ChemDB.

Shared fields: growth or infection tests; organism: Herpes simplex virus 1; endpoint: EC90

ECn is the concentration giving n% inhibition of infection, replication or growth. Blank or dashed fields: not listed here. Conditions beyond the fields shown may differ between rows.

OC[C@H]1O[C@@H](c2cc(Br)nc3cc(Cl)c(Cl)cc23)C(O)C1O ; cell line: HFF ; method: virus yield ; value: 37 µM
Nc1ccn([C@H]2C[C@H](O)[C@@H](CO)O2)c(=O)n1 ; cell line: HeLa ; method: virus yield ; value: 26 µM
CCCCCCCC/C=C\CCCCCCCOCCCOP(=O)(O)CO[C@H](CO)Cn1cnc2c(N)ncnc21 ; cell line: MRC-5 ; method: hybridisation ; value: 0.0025 µM
O=C(N/C(C(=O)N1CCCCC1)=C(/Cl)c1ccccc1)c1ccccc1 ; cell line: VERO ; value: >81 µM
Cn1c2c(c(=O)n(C)c1=O)S[C@H]1[C@@H](O2)O[C@H](CO)[C@@H](O)[C@@H]1O ; cell line: VERO ; value: >100 µM
Cc1c(NC(=O)c2ccccc2)ccc2nc(NC(C)(C)C(=O)N(C)CCc3ccccn3)oc(=O)c12 ; cell line: VERO ; method: plaque count ; value: >12.5 µM
OCC(CO)OCn1cc(I)c2c(NO)ncnc21 ; cell line: HFF ; method: virus yield ; value: >100 µM
Cc1c(NC(=O)c2cccs2)ccc2nc(NC(C)(C)C(=O)N(C)CCc3ccccn3)oc(=O)c12 ; cell line: VERO ; method: plaque count ; value: >12.5 µM
Nc1ncnc2c1c(I)cn2COCCO ; cell line: HFF ; method: virus yield ; value: >100 µM
Cc1c(NC(=O)C2CCC2)ccc2nc(NC(C)(C)C(=O)N(C)CCc3ccccn3)oc(=O)c12 ; cell line: VERO ; method: plaque count ; value: 12.5 µM
Cc1cccc(C)c1N(CC(=O)Nc1ccc(-c2ncon2)cc1)C(=O)C1CCS(=O)(=O)CC1 ; strain: 1 (KOS) ; cell line: HEF ; method: plaque count ; value: 0.23 µM
O=c1[nH]c(=O)n([C@H]2C[C@H](O)[C@@H](CO)O2)cc1F ; cell line: HeLa ; method: virus yield ; value: >250 µM
COc1cc(OC)cc(C(=O)Nc2ccc3nc(NC(C)(C)C(=O)N(C)CCc4ccccn4)oc(=O)c3c2C)c1 ; cell line: VERO ; method: plaque count ; value: >12.5 µM
Nc1nc2c(ncn2COCCO)c(=O)[nH]1 ; strain: KOS ; cell line: VERO ; method: plaque count ; value: 12.7 µM
Cn1c2c(c(=O)n(C)c1=O)S[C@@H]1[C@H](O2)O[C@H](COc2ccccc2)[C@@H](OCc2ccccc2)[C@@H]1OCc1ccccc1 ; cell line: VERO ; value: >100 µM
Cc1c(NC(=O)OC(C)(C)C)ccc2nc(N(CCc3ccccc3)C(=O)NCc3ccccn3)oc(=O)c12 ; cell line: VERO ; method: plaque count ; value: 5.9 µM
NC(=S)c1cn(COC(CO)CO)c2ncnc(N)c12 ; cell line: HFF ; method: virus yield ; value: 3.5 µM
COCC(=O)Nc1ccc2nc(NC(C)(C)C(=O)N(C)CCc3ccccn3)oc(=O)c2c1C ; cell line: VERO ; method: plaque count ; value: >12.5 µM
CC(=O)O[C@H]1[C@@H](OC(C)=O)[C@@H](CO[Si](c2ccccc2)(c2ccccc2)C(C)(C)C)O[C@@H](O[C@H]2[C@H](OC(C)=O)[C@H]3Sc4c(n(C)c(=O)n(C)c4=O)O[C@H]3O[C@@H]2CO[Si](c2ccccc2)(c2ccccc2)C(C)(C)C)[C@@H]1OC(C)=O ; cell line: VERO ; value: >100 µM
Cc1c(NC(=O)OC(C)(C)C)ccc2nc(N3CCCC[C@H]3C(=O)NCCc3ccccn3)oc(=O)c12 ; cell line: VERO ; method: plaque count ; value: >12.5 µM
Cc1cn([C@H]2C[C@H](O)[C@@H](CO)O2)c(=O)nc1N ; cell line: HeLa ; method: virus yield ; value: 32 µM

Repeating the final 2 entries:

| compound | strain | cell line | method | value |
|---|---|---|---|---|
| Cc1c(NC(=O)OC(C)(C)C)ccc2nc(N3CCCC[C@H]3C(=O)NCCc3ccccn3)oc(=O)c12 | - | VERO | plaque count | >12.5 µM |
| Cc1cn([C@H]2C[C@H](O)[C@@H](CO)O2)c(=O)nc1N | - | HeLa | virus yield | 32 µM |